Anti-infective test results gathered from many reports (values: NIAID ChemDB through PubChem).

Common to all: tests on isolated targets; agent: Hepatitis C virus; protein: Nonstructural protein 3 NTPase/helicase; measure: IC50

Two numbers with a dash give a range or band.

| SMILES | method | value |
|---|---|---|
| CC(=O)O[C@H]1C(=O)[C@@]2(C)[C@H]([C@H](OC(=O)c3ccccc3)[C@]3(O)C[C@H](OC(=O)[C@H](O)[C@@H](NC(=O)c4ccccc4)c4ccccc4)C(C)=C1C3(C)C)[C@]1(OC(C)=O)CO[C@@H]1C[C@@H]2O | - | 17 µM |
| O=C(O)[C@@H](Cc1ccccc1)N(Cc1ccc(-c2ccccc2C(F)(F)F)o1)C(=O)c1ccccc1C(F)(F)F | HPLC | 5–20 µM |
| NC(=O)c1ncn([C@@H]2O[C@H](COC(=O)c3ccc(S(=O)(=O)F)cc3)[C@@H](O)[C@H]2O)n1 | - | >1000 µM |
| COc1cccc2c1C(=O)c1c(O)c3c(c(O)c1C2=O)C[C@@](O)(C(C)=O)C[C@@H]3O[C@H]1C[C@H](N)[C@H](O)[C@H](C)O1 | - | 57 µM |
| Nc1nncs1 | - | >25 µg/mL |
| OC[C@H]1O[C@@H](n2cnc3cc(Cl)c(Cl)cc32)[C@H](O)[C@@H]1O | - | >500 µM |
| O=C(/C=C/C(=O)Nc1ccc(-c2nc3ccccc3[nH]2)cc1)Nc1ccc(-c2nc3ccccc3[nH]2)cc1 | - | <25 µg/mL |
| Brc1c(Br)c(Br)c2n[nH]nc2c1Br | - | 60 µM |
| c1cc(CN2CCC(C3=N[C@@H]4CCCC[C@H]4N3)CC2)ccc1CN1CCC(C2=N[C@@H]3CCCC[C@H]3C2)CC1 | - | 7 µM |
| Nc1nc2ccc(S(=O)(=O)c3ccc([N+](=O)[O-])cc3)cc2s1 | - | >25 µg/mL |
| CN1CCN(CCCN2c3ccccc3Sc3ccc(C(F)(F)F)cc32)CC1 | - | 0.6–0.7 µM |
| O=C(O)[C@H](Cc1ccccc1)N(Cc1ccc(-c2cc3ccccc3o2)s1)C(=O)c1ccc(Cl)cc1Cl | HPLC | 5–20 µM |
| COC(=O)C1c2cc3c(c(O)c2C(O)CC1(C)O)C(=O)c1c(O)cc2c(c1C3=O)OC1OC2(C)C(O)C(N(C)C)C1O | - | 0.1 µM |
| O=C(O)C(Cc1ccccc1)N(Cc1cccc(-c2cc3ccccc3o2)c1)C(=O)c1ccc(Cl)cc1Cl | HPLC | 5–20 µM |
| O=C(CCCCCCC(=O)Nc1ccc(-c2nc3ccccc3s2)cc1)Nc1ccc(-c2nc3ccccc3s2)cc1 | - | >25 µg/mL |
| NC(=O)c1ncn([C@@H]2O[C@H](COP(=O)(O)OP(=O)(O)O)[C@@H](O)[C@H]2O)n1 | - | 250 µM |
| COc1cc(C)c(S(=O)(=O)N(Cc2ccc(-c3cc4ccccc4o3)cc2)[C@@H](Cc2ccccc2)C(=O)O)c(C)c1C | HPLC | 5–20 µM |
| Nc1ncnc2c1ncn2[C@@H]1O[C@H](COC(=O)c2ccc(S(=O)(=O)F)cc2)[C@@H](O)[C@H]1O | - | >1000 µM |
| O=C(O)[C@@H](Cc1ccccc1)N(Cc1ccc(-c2ccccc2C(F)(F)F)o1)C(=O)c1ccccc1F | HPLC | 5–20 µM |
| Nc1ccc(-c2nc3ccccc3o2)cc1 | - | >25 µg/mL |
| O=C(CCC(=O)N1CCC(c2nc3ccccc3[nH]2)CC1)N1CCC(c2nc3ccccc3[nH]2)CC1 | - | 0.7 µM |
| O=C(CCCCC(=O)Nc1ccc(-c2nc3ncncc3[nH]2)cc1)Nc1ccc(-c2nc3ccccc3[nH]2)cc1 | - | 0.7 µM |

The last 3 rows once more:

{"SMILES": "Nc1ccc(-c2nc3ccccc3o2)cc1", "value": ">25 µg/mL"}
{"SMILES": "O=C(CCC(=O)N1CCC(c2nc3ccccc3[nH]2)CC1)N1CCC(c2nc3ccccc3[nH]2)CC1", "value": "0.7 µM"}
{"SMILES": "O=C(CCCCC(=O)Nc1ccc(-c2nc3ncncc3[nH]2)cc1)Nc1ccc(-c2nc3ccccc3[nH]2)cc1", "value": "0.7 µM"}

Blank or dashed fields: not listed here. Neighbouring rows are from separate reports. ICn is the concentration giving n% inhibition.